# Results taken from PMC9574867, “Discovery and Characterization of Synthesized and FDA-Approved Inhibitors of Clostridial and Bacillary Collagenases” (Journal of Medicinal Chemistry, 2022).
# The chains behind the UniProt entries cited, without tags or fusion partners. Residues count along the entry.
# UniProt Q46085, 331-721 limits assumed: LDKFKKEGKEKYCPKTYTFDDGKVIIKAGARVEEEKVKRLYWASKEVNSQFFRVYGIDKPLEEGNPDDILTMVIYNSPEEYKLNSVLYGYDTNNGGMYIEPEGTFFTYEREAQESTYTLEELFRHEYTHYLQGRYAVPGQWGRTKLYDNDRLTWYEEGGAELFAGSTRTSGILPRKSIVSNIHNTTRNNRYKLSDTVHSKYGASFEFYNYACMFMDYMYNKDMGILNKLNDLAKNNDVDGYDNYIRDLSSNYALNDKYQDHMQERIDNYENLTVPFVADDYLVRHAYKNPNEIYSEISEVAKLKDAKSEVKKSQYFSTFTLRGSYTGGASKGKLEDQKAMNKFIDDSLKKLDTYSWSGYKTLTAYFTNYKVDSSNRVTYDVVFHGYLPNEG
# Key:
# ColH-PD = ColH-PD (Hathewaya histolytica, UniProt Q46085); experiment: In vitro FRET-based peptidolytic assay, peptidase domain of ColH; details: screening at 100 µM
# ColQ1-CU = ColQ1-CU (Bacillus cereus, UniProt B9J3S4); experiment: In vitro FRET-based peptidolytic assay, collagenase unit of ColQ1; type: biochemical, B. cereus strain Q1; details: read-out: Ki (ColQ1-CU); printed in the % inhibition column of Table S1, unit inferred
smiles,measurement,setting,value
CC(C)CC(C(=O)NO)C(=O)Nc1cccc(Cn2cc(CNS(=O)(=O)c3ccc(I)cc3)nn2)c1 (centres unmarked),% Inhibition (ColH-PD) Mean,ColH-PD,58%
same,Ki,ColQ1-CU,6.9 µM
